Assay results reported in patent US10501493B2, “Broad spectrum antibiotics” (priority 2011, dated 2019).

Protein sequences, listed by entry. Tags and fused reporters are not part of them.
UniProt P0A070, whole entry: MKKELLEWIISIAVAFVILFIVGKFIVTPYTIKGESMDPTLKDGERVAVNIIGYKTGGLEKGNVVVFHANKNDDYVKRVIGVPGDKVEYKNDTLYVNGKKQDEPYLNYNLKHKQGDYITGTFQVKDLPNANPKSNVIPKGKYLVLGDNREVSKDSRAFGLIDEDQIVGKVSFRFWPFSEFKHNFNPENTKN
UniProt P00803, whole entry: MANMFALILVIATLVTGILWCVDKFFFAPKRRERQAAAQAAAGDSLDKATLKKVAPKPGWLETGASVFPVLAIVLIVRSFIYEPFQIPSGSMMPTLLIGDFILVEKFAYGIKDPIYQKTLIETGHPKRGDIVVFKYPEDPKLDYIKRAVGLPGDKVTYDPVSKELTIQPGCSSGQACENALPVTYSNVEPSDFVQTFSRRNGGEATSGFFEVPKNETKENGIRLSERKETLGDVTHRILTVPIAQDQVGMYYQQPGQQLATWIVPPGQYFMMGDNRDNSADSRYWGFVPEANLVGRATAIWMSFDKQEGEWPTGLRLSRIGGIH

Tests used:
[1] = tested on: S. aurues NCTC-8325; assay: In vitro antimicrobial activity, MIC by broth micro-dilution; format: cell-based, S. aureus
Procedure: (§1) In vitro antimicrobial activity of each compound was determined by measuring minimal inhibitor concentrations (MICs) using the broth micro-dilution technique as approved by the Clinical and Laboratory Standards Institute (CLSI). The microbiological panel examined contains a number of bacterial species including E. coli MG1655, P. aeruginosa, S. aureus, and S. epidermidis. In addition, the panel includes previously described pseudo-isogenic strains of these four species (P. A. Smith et al. Chem Biol 2010, 1223-1231), in which a specific proline residue in SPase (called LepB in Gram-negative organisms an SpsB in Gram-positive organisms) has been mutated to a different amino acid. The resulting strains have increased susceptibility to the arylomycin class of antibiotics. Analysis of the strains lacking this proline residue will increases the dynamic range of the assay, and comparison of the sensitivities of the isogenic pairs provides ongoing confirmation that the activity gained through derivatization is specific to the inhibition of SPase. Briefly, bacterial streaks were grown on Mueller Hinton Agar II (Difco™) with or without 5% lysed horse blood for a period of 24 hours at either 35° C. or 28° C. […] MICs were periodically checked plating serial dilutions of MIC wells and quantitatively determining viable colonies.

[2] = tested on: E. col ATCC 25922 LepB(P84L); assay: as above; format: cell-based, E. coli
Procedure: as §1

[3] = tested on: S. pneumoniae D39; assay: as above; format: cell-based
Procedure: (§2) In vitro antimicrobial activity of each compound was determined by measuring minimal inhibitor concentrations (MICs) using the broth micro-dilution technique as approved by the Clinical and Laboratory Standards Institute (CLSI). The microbiological panel examined contains a number of bacterial species including E. coli MG1655, P. aeruginosa, S. aureus, and S. epidermidis. In addition, the panel includes previously described pseudo-isogenic strains of these four species (P. A. Smith et al. Chem Biol 2010, 1223-1231), in which a specific proline residue in SPase (called LepB in Gram-negative organisms an SpsB in Gram-positive organisms) has been mutated to a different amino acid. The resulting strains have increased susceptibility to the arylomycin class of antibiotics. Analysis of the strains lacking this proline residue will increases the dynamic range of the assay, and comparison of the sensitivities of the isogenic pairs provides ongoing confirmation that the activity gained through derivatization is specific to the inhibition of SPase. Briefly, bacterial streaks were grown on Mueller Hinton Agar II (Difco™) with or without 5% lysed horse blood for a period of 24 hours at either 35° C. or 28° C. Bacterial colonies were suspended in cation adjusted Mueller Hinton broth and diluted to a final concentration of 1*10^7 colony forming units/ml. Two-fold serial dilutions of each compound were arrayed into 96-well plates (100 μl final volume per well) and 5 ul of the bacterial suspension will be added. […] MICs were periodically checked plating serial dilutions of MIC wells and quantitatively determining viable colonies.

[4] = tested on: S. epidermidis RP62A; assay: as above; format: cell-based
Procedure: as §2

[5] = tested on: S. aureus NCTC-8325 SpsB(P295); assay: as above; format: cell-based
Procedure: as §2

[6] = tested on: E. coli ATCC 25922; assay: as above; format: cell-based
Procedure: as §2

[7] = target: S. aureus SPase (Staphylococcus aureus, UniProt P0A070); assay: Enzymatic fluorogenic substrate cleavage assay for IC50; format: biochemical; details: read-out: IC50 class S. aureus SPase; fluorogenic peptide cleavage
Procedure: (§3) Full length His-tagged E. coli SPase proteins were expressed in E. coli BL21(DE3) containing the plasmid pET23-lepB, P. A. Smith et al. Chem Biol 2010, 1223-1231. Briefly, saturated overnight cultures grown in 20 ml of Luria-Bertani medium supplemented with ampicillin were subcultures into 1.5 L of Luria-Bertani, and shaken at 37° C. until an optical density at 600 nm of 0.4-0.5 was achieved. Protein expression was induced with Isopropyl β-D-1-thiogalactopyranoside (ITPG) at a final concentration of […], and purified using nickel affinity chromatography. Full length His-tagged S. aureus SPase protein was expressed similarly from E. coli BL21(DE3) containing the plasmid pCDF1-SaSpsB or pCDF1-SaSpsB(P29S) and purified similarly to the E. coli protein with the following exceptions. SPase protein was solubilized using 300 mM NaCl, 20 mM Tris pH 8.06, 5 mM Imidazole, 10% glycerol, 1% Triton X-100, prior to purification in Ni-NTA Superflow resin and resin bound protein was washed in a similar buffer containing 1% Elugent in place of Triton X-100 prior to protein eluted in wash buffer supplemented with 300 mM imidazole. Protein purify was judged to exceed 95% by visual inspection of SDS-PAGE followed by Comassie staining. All protein concentrations were determined by BCA assay.
(§4) In addition to the equilibrium binding assays, compound activity is also characterized by measuring inhibition of E. coli and S. aureus substrate cleavage reactions using fluorogenic peptides developed at RQx Pharmaceuticals. Briefly, two fluorogenic peptide substrates (decanoyl-LSSPA Y^NO2 A ? ADK^abzPD (SEQ ID NO: 1) and decanyol-LTPTAY^NO2 A ? ASKK^abzDD (SEQ ID NO: 2)) have been synthesized, where abz is the fluorescence donor 2-aminobenzamide, YNO2 is the fluorescence acceptor 3-nitrotyrosine, and the cleavage site is indicated with an arrow. These substrates are processed with a second order rate constant (Kcat/KM) of 10^5 M^−1s^−1 for E. coli and S. aureus SPase enzymes, and cleavage results in a greater than 10-fold increase in fluorescence signal (excitation at 314 nm, emission at 416 nm) as measured using a SpectraMax M2 fluorescence microplate reader. […] The increase in fluorescence, corresponding to substrate cleavage, is monitored continuously at room temperature for 30 minutes and initial reaction rates are calculated based in the linear increase in fluorescence from the initial 30 minutes of the reaction. Reaction rates are plotted as a function of compound concentration, and IC50 values are determined nonlinear regression analysis (SoftMax® Pro v5.4) of the sigmoidal dose-response curve.

[8] = target: E. coli SPase (Escherichia coli, UniProt P00803); assay: as above; format: biochemical; details: read-out: IC50 class E. coli SPase; fluorogenic peptide cleavage
Procedure: as §3, §4

Row | Structure (SMILES) | MIC class, S. aurues NCTC-8325 [1] | MIC class, E. col ATCC 25922 LepB(P84L) [2] | MIC class, S. pneumoniae D39 [3] | MIC class, S. epidermidis RP62A [4] | MIC class, S. aureus NCTC-8325 SpsB(P295) [5] | MIC class, E. coli ATCC 25922 [6] | IC50 [7] [nM] | IC50 [8] [nM]
1 | CCCCCCCCCCCCCCNC(=O)N[C@H](CO)C(=O)N[C@H](C)C(=O)NCC(=O)N(C)[C@@H]1C(=O)N[C@@H](C)C(=O)N[C@H](C(=O)O)Cc2ccc(O)c(c2)-c2cc1ccc2O | a (MIC >64 μg/ml) | c (MIC ≤8 μg/ml) | a (MIC >64 μg/ml) | c (MIC ≤8 μg/ml) | a (MIC >64 μg/ml) | a (MIC >64 μg/ml) | < 1000 | < 1000
2 | CCCCCCCCCCCCCCCC(=O)N(C)[C@H](CO)C(=O)N[C@H](C)C(=O)N[C@H](C)C(=O)N(C)[C@@H]1C(=O)N[C@@H](C)C(=O)N[C@H](C(=O)O)Cc2ccc(O)c(c2)-c2cc1ccc2O | a (MIC >64 μg/ml) | a (MIC >64 μg/ml) | b (MIC 16-64 μg/ml) | b (MIC 16-64 μg/ml) | b (MIC 16-64 μg/ml) |  | 1000 to 10000 | 1000 to 10000
